Source: PMC4393083, “Antiviral Activity and Possible Mechanism of Action of Constituents Identified in Paeonia lactiflora Root toward Human Rhinoviruses” (PLoS ONE, 2015)

What was measured:
Assay type in all cases: cell-based, human rhinovirus
[1] = tested on: HRV-4; experiment: Cytopathic effect inhibition assay (MTT), HRV-4 in MRC5 cells; settings: CC50/IC50, MRC5 cells
Description: (§1) Monolayers of HeLa and MRC5 cells were seeded onto a 96-well culture plate as stated previously. Subsequently, 90 μL media containing several different concentrations (1–1000 μg/mL) of each test material in DMSO was put into the wells, and then 10 μL of 10×TCID50 of the virus stock was added to produce an appropriate CPE within 2 days after infection. Ribavirin served as a reference control and was similarly prepared. Negative controls consisted of the DMSO solution. Viral inhibition rate (VIR) (%) was calculated according to the formula [21], VIR = (A tV—A cV)/(A cd—A cV) × 100, where A tV is the optical density measured with a given concentration of the test compound in HRV infected cells; A cV is the optical density measured for the control untreated HRV infected cells; A cd is the optical density measured for the control untreated HRV uninfected cells.
(§2) The CC50 and IC50 values were determined using GraphPad Prism 5 software program (GraphPad Software, La Jolla, CA). […] The selectivity index (SI) was determined as the ratio of CC50 to IC50 [23]. All data represent the mean ± SD of duplicate or triplicate samples of three independent experiments. Statistical analyses were carried out using SAS 9.13 program (SAS Institute, Cary, NC). Data from two groups were analyzed by a Student’s t-test, and multiple groups were analyzed by a one-way analysis of variance and Bonferroni multiple comparison post-test.

[2] = tested on: HRV-2; experiment: Cytopathic effect inhibition assay (MTT), HRV-2 in HeLa cells; settings: CC50/IC50, HeLa cells
Description: as §1, §2

[3] = tested on: HRV-4; experiment: Cytopathic effect inhibition assay (MTT), HRV-4 in HeLa cells; settings: CC50/IC50, HeLa cells
Description: Extraction procedures of air-dried root of P. lactiflora were performed as described previously by Ngan et al.. For isolation of active principles, viral CPE inhibition assay toward HRV-4 in HeLa cell was used. […]. Column fractions were monitored by TLC on silica gel plates developed with chloroform and methanol (7:3 by volume) mobile phase. Fractions with similar R f values on the TLC plates were pooled. Active fractions 4 to 5 (EI, 2.44 g) and 7 (EII, 0.569 g) were obtained. The active fraction EI was rechromatographed on a silica gel column by elution with chloroform and methanol (70:30 by volume) to give nine fractions (each about 450 mL). A preparative HPLC was used for separation of constituents from the active fractions 3 to 5 (0.176 g). The column was a 4.6 mm i.d. × 150 mm Eclipse XDB-C18 (Agilent, Santa Clara, CA) using a mobile phase of methanol and water (3:7 by volume) at a flow rate of 0.5 mL/min. Chromatographic separations were monitored using a UV detector at 260 nm. […]. The three antiviral principles were characterized as paeonol (PA) (1), gallic acid (GA) (2), and 1,2,3,4,6-penta-O-galloyl-β-D-glucopyranose (PGG) (3) (Fig 1) by spectroscopic analyses, including MS and NMR. PA (1): compound 1 was isolated as an antibacterial principle from P. lactiflora root in our previous work, and the spectral data of compound 1 was largely identical to the published data. GA (2) was identified on the basis of the following evidence: white powder. UV (MeOH): λmax nm = 260. FT-IR: v max cm^–1 = 3491–3063 (OH stretch), 1608 (aromatic C = C). […] The interpretations of proton and carbon signals of compound 2 were largely consistent with those of Sakar et al.. PGG (3): compound 3 was isolated as an antibacterial principle from P. lactiflora root in our previous work, and the spectral data of compound 3 was largely identical to the published data.
Monolayers of HeLa and MRC5 cells were seeded onto a 96-well culture plate as stated previously. […] Viral inhibition rate (VIR) (%) was calculated according to the formula [21], VIR = (A tV—A cV)/(A cd—A cV) × 100, where A tV is the optical density measured with a given concentration of the test compound in HRV infected cells; A cV is the optical density measured for the control untreated HRV infected cells; A cd is the optical density measured for the control untreated HRV uninfected cells.
as §2, with “All data represent the mean ± SD of duplicate or triplicate samples of three independent experiments. Statistical analyses were carried out using SAS 9.13 program (SAS Institute, Cary, NC).” left out

[4] = tested on: HRV-2; experiment: Cytopathic effect inhibition assay (MTT), HRV-2 in MRC5 cells; settings: CC50/IC50, MRC5 cells
Description: as §1, §2

Compound	SI HRV-4 [1]	SI HRV-2 [2]	SI HRV-4 [3]	SI HRV-2 [4]
COc1ccc(C(C)=O)c(O)c1 [PA, paeonol]	6.4	5.2	6.1	6.2
NC(=O)c1ncn([C@@H]2O[C@H](CO)[C@@H](O)[C@H]2O)n1 [Ribavirin, reference compound]	7	7.7	7.2	9.1
O=C(OC[C@H]1O[C@@H](OC(=O)c2cc(O)c(O)c(O)c2)[C@H](OC(=O)c2cc(O)c(O)c(O)c2)[C@@H](OC(=O)c2cc(O)c(O)c(O)c2)[C@@H]1OC(=O)c1cc(O)c(O)c(O)c1)c1cc(O)c(O)c(O)c1 [PGG, 1,2,3,4,6-penta-O-galloyl-β-D-glucopyranose]	6.3	9.4	7.6	6.1
O=C(O)c1cc(O)c(O)c(O)c1 [GA, gallic acid]		3.5	3.3	
